Measurements from patent US12115182B2, “Adenosine A2A agonists for the treatment of cytokine storm syndrome” (priority 2021, dated 2024).

Test system: SARS CoV-2
Test: Apadenoson in K18-hACE2 mouse model of COVID-19: survival, weight, clinical scores
Conditions: day 12

## CCNC(=O)[C@H]1O[C@@H](n2cnc3c(N)nc(C#CC[C@H]4CC[C@H](C(=O)OC)CC4)nc32)[C@H](O)[C@@H]1O [Apadenoson]
Drug group: apadenoson 18 hours before viral challenge, 4/17
  mice survived to the end of the experiment: 24%
Drug with delay group: apadenoson five hours post viral challenge, 5/17
  mice survived to the end of the experiment: 30%
